Experimental findings from article PMC8602850 are described below.

Protein sequences, listed by entry. Tags and fused reporters are not part of them. Residues count along the entry.
UniProt Q07021, 74-282, stated change not applied: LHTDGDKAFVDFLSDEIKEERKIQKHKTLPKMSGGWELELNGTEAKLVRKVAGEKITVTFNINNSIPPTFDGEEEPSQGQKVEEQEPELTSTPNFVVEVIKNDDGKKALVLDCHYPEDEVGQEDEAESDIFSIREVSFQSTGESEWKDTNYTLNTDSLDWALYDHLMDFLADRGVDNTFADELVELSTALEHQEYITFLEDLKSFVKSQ

As usually defined, the pKd is the Kd on a negative log10 scale, so that one unit is a factor of ten.

pKd: −log10 of the molar value.

The assay concerns the target gC1qR-ΔΔ, gC1qR deletion mutant that removed the flexible, negatively charged loops (UniProt Q07021). Kind of assay: SPR; gC1qR-WT or gC1qR-ΔΔ immobilised; two-fold dilution series of analyte injected; reference-corrected sensorgrams fit to kinetic models; apparent KD.

Regarding “SARS-CoV-2 spike S1 protein, recombinant (from UniProt P0DTC2 14-685) (domain or fragment)”, the pKd was 6.43.
